The term inhibition denotes the drop in the measured response relative to a control, in per cent.

This is a selection; strong and weak results do not stand in their true shares. Calls of active or inactive are those of the source. No stated cut-off is given here; in the data, active means inhibition above about 40%; inactive means the rest.

A short description of this assay: growth inhibitors of wild type E. coli, primary screen, strain BW25113 wild type, absorbance readout (AID 552).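 Further: bacteria exposed to compound for 20 hours at 37 °C.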 The following applies: OD600, at 10 µM, stronger effect = higher value. The gist of the method:
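Material: bacterial strain in a whole-cell growth screen; Amount: inoculum from a 1:1000 dilution of a 1.5 h subculture; Buffer or medium: LB plus kanamycin 50 µg/mL; Dosing: one dose, 10 µM final; Times: compound exposure of 20 h at 37 °C; Measured by: absorbance at 615 nm as a measure of bacterial growth.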
As to `Cc1nc2ccc3ccccc3c2s1.O=[N+]([O-])c1cc([N+](=O)[O-])c(O)c([N+](=O)[O-])c1`, the inhibition is inactive: -14.7%. As for `Cc1ccc(C)c(NP(C)(=O)Oc2ccccc2)c1` (stereo unspecified), the inhibition is inactive: 2.35%. The figure for `CP(=S)(Nn1cnnc1)Oc1ccccc1` (stereo unspecified) is inactive: 0.88%; for `CP(=O)(Nc1ccccn1)Oc1ccccc1` (stereo unspecified) it is inactive: 5.39%; for `CN(C)CCOC(=O)C(O)(c1ccccc1)C1CCCCC1` (stereo unspecified) it is inactive: -3.25%.

For `CP(=O)(Nc1ccc2c(c1)OCCO2)Oc1ccccc1` (stereo unspecified), the inhibition was inactive: 9.47%.

Values taken from PubChem BioAssay AID552 (SRMLSC, 2006).
